From publication PMC4265319
Construct, isoform or probe ends are uncertain for at least one entry.

Target: T1, LacR (Staphylococcus aureus) (UniProt Q5HE08)
T1 sequence: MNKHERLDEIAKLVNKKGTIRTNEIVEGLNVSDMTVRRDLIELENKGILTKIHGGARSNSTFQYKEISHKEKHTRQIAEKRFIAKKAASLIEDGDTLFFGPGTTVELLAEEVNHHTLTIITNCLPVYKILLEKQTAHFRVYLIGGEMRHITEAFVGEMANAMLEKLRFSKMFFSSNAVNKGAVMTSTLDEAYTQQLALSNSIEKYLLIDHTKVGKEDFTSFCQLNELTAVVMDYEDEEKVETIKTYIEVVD
Test: EMSA
Details: 0.01, 0.1, 1 uM LacR, shift at higher concentrations; EMSA 25 C, 20 min, 20 ul, 1x binding buffer, 2.5% glycerol, 50 ng/ml poly(dI-dC), 0.05% NP-40; recombinant protein; residues 1-251; protein details: C-terminal His (pET24d+); label: 5' biotin on both strands; probe letters rebuilt from the primers and the genome

“GGCTTTCAATTTGATTACGTTTAAATTATAAACATAAACAAACAATAAATCAACATAATATGTTTATAATATGTTTGTTTATGACGTATTTTCAAACAATAAGTGAACATTCATATTGTGGTGTTGTTTTAATTAGGTATTCGTCTGAAATTGTAGTAAAACTTTGTCGAGGTTCCCGTTGACATAAATTTGCATAAAAAATAGCCCATAAATGAATGCAAATTCACATTCACTTATGAGCATATAGATACATATTTTAACAATGCAGTTATACTTTTAATTTAG (double strand) [lac operon promoter]”: binds.
